What was measured:
Conditions in all cases: 10 and 100 nM peptide; described as inactive
hα1β1εδ nAChR = hα1β1εδ nAChR (Homo sapiens, UniProt P02708+Q04844+Q07001); assay: Two-electrode voltage clamp, inhibition of ACh-evoked currents in X. laevis oocytes expressing hα1β1εδ nAChRs
hα3β4 nAChR = hα3β4 nAChR (Homo sapiens, UniProt P30926+P32297)
hα4β2 nAChR = hα4β2 nAChR (Homo sapiens, UniProt P17787+P43681)
hα4β4 nAChR = hα4β4 nAChR (Homo sapiens, UniProt P30926+P43681)
hα1β1δγ nAChR = hα1β1δγ nAChR (Homo sapiens, UniProt P02708+P07510+Q07001); assay: Two-electrode voltage clamp, inhibition of ACh-evoked currents in X. laevis oocytes expressing hα1β1δγ nAChRs

Amino acid sequences for entries named in this document (tags omitted). Residues count along the entry.
UniProt P30926, 22-498 limits assumed: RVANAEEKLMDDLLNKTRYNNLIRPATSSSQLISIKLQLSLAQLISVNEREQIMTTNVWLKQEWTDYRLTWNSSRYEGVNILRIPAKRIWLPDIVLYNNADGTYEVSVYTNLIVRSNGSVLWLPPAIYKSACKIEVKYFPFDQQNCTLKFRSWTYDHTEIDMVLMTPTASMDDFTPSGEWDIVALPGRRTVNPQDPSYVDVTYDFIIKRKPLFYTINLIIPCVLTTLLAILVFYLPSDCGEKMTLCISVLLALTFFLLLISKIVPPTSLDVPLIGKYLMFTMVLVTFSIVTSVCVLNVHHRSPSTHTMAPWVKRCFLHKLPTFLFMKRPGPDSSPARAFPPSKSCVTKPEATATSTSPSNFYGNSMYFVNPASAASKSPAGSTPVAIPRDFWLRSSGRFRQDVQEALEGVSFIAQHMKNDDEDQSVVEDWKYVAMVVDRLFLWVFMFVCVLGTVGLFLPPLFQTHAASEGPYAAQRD
UniProt P32297, 32-505 limits assumed: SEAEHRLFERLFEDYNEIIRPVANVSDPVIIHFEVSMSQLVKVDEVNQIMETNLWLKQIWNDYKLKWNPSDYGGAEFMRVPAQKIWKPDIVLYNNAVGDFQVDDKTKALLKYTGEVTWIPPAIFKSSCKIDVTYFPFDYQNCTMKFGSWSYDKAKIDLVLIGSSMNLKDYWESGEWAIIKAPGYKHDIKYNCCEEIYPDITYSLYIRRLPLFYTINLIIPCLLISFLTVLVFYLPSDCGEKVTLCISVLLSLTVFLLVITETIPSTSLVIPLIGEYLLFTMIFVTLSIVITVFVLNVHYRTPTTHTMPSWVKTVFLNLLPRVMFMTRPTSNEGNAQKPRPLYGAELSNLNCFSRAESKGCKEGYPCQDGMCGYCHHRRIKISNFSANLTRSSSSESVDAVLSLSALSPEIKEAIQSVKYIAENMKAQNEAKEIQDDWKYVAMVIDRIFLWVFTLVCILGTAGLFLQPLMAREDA
UniProt P17787, 26-502 limits assumed: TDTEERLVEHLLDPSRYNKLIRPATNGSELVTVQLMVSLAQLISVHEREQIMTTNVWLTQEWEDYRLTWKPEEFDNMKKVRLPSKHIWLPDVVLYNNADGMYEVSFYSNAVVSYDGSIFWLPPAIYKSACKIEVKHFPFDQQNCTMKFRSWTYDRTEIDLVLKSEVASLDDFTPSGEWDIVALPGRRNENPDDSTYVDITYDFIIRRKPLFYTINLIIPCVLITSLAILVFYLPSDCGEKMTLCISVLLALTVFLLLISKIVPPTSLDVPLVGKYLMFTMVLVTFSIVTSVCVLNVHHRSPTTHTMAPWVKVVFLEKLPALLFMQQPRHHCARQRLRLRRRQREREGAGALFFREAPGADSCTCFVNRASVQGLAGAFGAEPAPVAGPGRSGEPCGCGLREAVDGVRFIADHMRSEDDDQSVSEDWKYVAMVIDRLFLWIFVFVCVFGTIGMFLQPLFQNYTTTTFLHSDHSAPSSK
UniProt P43681, 29-627 limits assumed: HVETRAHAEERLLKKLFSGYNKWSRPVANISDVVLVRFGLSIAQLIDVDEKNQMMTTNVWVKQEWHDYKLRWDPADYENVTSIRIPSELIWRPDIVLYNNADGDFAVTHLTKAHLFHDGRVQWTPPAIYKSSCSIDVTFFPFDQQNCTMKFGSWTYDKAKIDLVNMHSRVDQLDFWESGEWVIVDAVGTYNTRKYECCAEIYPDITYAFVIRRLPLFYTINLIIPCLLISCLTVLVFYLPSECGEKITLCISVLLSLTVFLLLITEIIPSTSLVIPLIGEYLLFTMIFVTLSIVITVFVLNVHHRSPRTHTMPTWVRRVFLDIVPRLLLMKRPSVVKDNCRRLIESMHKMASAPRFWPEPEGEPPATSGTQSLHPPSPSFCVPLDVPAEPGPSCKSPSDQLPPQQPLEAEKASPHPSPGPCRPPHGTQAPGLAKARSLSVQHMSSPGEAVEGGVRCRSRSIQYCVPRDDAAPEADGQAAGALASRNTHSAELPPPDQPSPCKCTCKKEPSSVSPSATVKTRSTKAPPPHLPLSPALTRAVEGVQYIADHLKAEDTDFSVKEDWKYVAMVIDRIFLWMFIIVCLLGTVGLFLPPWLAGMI

CC(C)C[C@@H]1NC(=O)[C@H](CCC(=O)O)NC(=O)[C@@H]2CCCN2C(=O)[C@H](Cc2c[nH]cn2)NC(=O)[C@H](CC(N)=O)NC(=O)[C@H](C(C)C)NC(=O)[C@H](CN)NC(=O)[C@@H]2CSSC[C@H](NC(=O)CN)C(=O)N[C@@H](CSSC[C@@H](C(N)=O)NC1=O)C(=O)N[C@@H](CN)C(=O)N[C@@H](Cc1c[nH]cn1)C(=O)N1CCC[C@H]1C(=O)N[C@@H](C)C(=O)N2 [PeIA[S4Dap, S9Dap]]
< 1%: Inhibition of ACh-evoked currents at hα1β1εδ (hα1β1εδ nAChR) | Inhibition of ACh-evoked currents at hα3β4 (hα3β4 nAChR) | Inhibition of ACh-evoked currents at hα4β2 (hα4β2 nAChR) | Inhibition of ACh-evoked currents at hα4β4 (hα4β4 nAChR) | Inhibition of ACh-evoked currents at hα1β1δγ (hα1β1δγ nAChR)

CC(C)C[C@@H]1NC(=O)[C@H](CCC(=O)O)NC(=O)[C@@H]2CCCN2C(=O)[C@H](Cc2c[nH]cn2)NC(=O)[C@H](CC(N)=O)NC(=O)[C@H](C(C)C)NC(=O)[C@H](CO)NC(=O)[C@@H]2CSSC[C@H](NC(=O)CN)C(=O)N[C@@H](CSSC[C@@H](C(N)=O)NC1=O)C(=O)N[C@@H](CO)C(=O)N[C@@H](Cc1c[nH]cn1)C(=O)N1CCC[C@H]1C(=O)N[C@@H](C)C(=O)N2 [PeIA]
< 1%: Inhibition of ACh-evoked currents at hα1β1εδ (hα1β1εδ nAChR) | Inhibition of ACh-evoked currents at hα1β1δγ (hα1β1δγ nAChR)

— article PMC10971807 (Marine Drugs, 2024)
